Data published in article PMC11066871 (Journal of the American Chemical Society, 2024).

Assay: general procedure: Fmoc solid-phase peptide synthesis; Trt-TentaGel (C-terminal acids), Rink Amide (C-terminal amides), Fmoc-Tyr-hydrazide Trt resin (hydrazides); HATU, DiPEA (PEG spacer coupling)
Settings: for isolated mass / isolated yield: whole synthesis; for isolated yield: scale of the general procedure 10 μmol (optimization tests 25 μmol)
[1] = on theoretical full scale of the synthesis

Substance | isolated mass | isolated yield [1] | step yield (coupling step, on MPA thioester used for NCL, over three steps) | isolated yield
CPTSP S-YSP TSPS -YSP TSPS -YSP TSPS -YSPTSPS-YpSPTSPS-NH2 | 3.63 µmol | 36% |  | 
CPTSP S-YSP TSPS -YSP TSPS -YSP TSPS -YpSPTSPS-YSP TSP S-NH2 | 4.44 µmol | 44% |  | 
CPTSP S-YSP TSPS -YSP TSPS -YpSPTSPS-YSPTSPS -YSP TSP S-NH2 | 3.68 µmol | 37% |  | 
CPTSP S-YSP TSPS -YpSPTSPS-YS PTSPS -YSPTSPS -YSP TSP S-NH2 | 4.44 µmol | 44% |  | 
CPTSP S-YpSP TSPS -YSPTSPS-YS PTSPS -YSPTSPS -YSP TSP S-NH2 | 4.80 µmol | 48% |  | 
H6-NH-(CH2)2-PEG6-CO-YSPTSPS-YpSPTSPS-(YSPTSPS)4-YAPTSPS-(YSPTSPS)3-YpSPTSPS-YSPTSPS |  |  | 22% | 
HHHHHH- PEG6--YSPTSPS-YSP TSPS -YSPTSPpS-YSP TSP S-YSP TSPS-YSP TSPS -NH2 | 4.2 6 μmol |  |  | 36%
HHHHHH- PEG6-YSP TSP S-YSP TSPS-YSP TSPS -YSPTSPS -Y SPTS P S-YSPTSPS -Y-NHNH2 | 2.52 µmol | 25% |  | 
HHHHHH- PEG6-YSP TSP S-YSP TSPS-YSP TSPS -YSPTSPS -Y SPTS P pS-YpSPpTSPS -NH2 | 1.8 5 μmol |  |  | 37%
HHHHHH- PEG6-YSP TSP S-YSP TSPS-YSP TSPS -YSPTSPS -YSPTS P pS-YpSPTSPS-NH2 | 1.1 6 μmol |  |  | 23%
HHHHHH- PEG6-YSP TSP S-YSP TSPS-YSP TSPS-YSPTSPS -Y SPTS P S-YSPTSPS -NH2 | 2.1 7 μmol |  |  | 43%
HHHHHH- PEG6-YSP TSP S-YSP TSPS-YpSP TSPS -YSPTSPS-YSP TS PS-YSPTSPS -NH2 | 1.9 3 μmol |  |  | 39%
HHHHHH- PEG6-YSP TSP S-YpSP TSPS -YSPTSPS-YSP TSP S-YSP TS PS-YSPTSPS -Y-MPA | 1.22 µmol | 12% |  | 
HHHHHH- PEG6-YSP TSP S-YpSP TSPS -YSPTSPS-YSP TSP S-YSP TS PS-YSPTSPS -Y-NHNH2 | 1.85 µmol | 19% |  | 
HHHHHH- PEG6-YpSP TSPS -YSP TSPS -YSPTSPS-YSP TSP S-YSP TS PS-YSPTSPS -NH2 | 0.5 1 μmol |  |  | 10%
HHHHHH-PEG6-YSP TSP S-YSP TSPS-YSP TSPS -YSPTSPS -Y SPTS P S-YSPTSPS -Y-MPA | 1.76 µmol | 18% |  | 
HHHHHH-PEG6-YSP TSP S-YpSP TSPS -YSPTSPS-YSP TSP S-YSP TS PS-YSPTSPS -NH2 | 1.9 8 μmol |  |  | 40%
